We go through ten sequences from article doi:10.1101/777375.

Tags and fusion partners may be left off the protein sequences shown.

In the data set the target is T1, VxrB (Vibrio cholerae) (UniProt Q9KM23).
T1 sequence (looked up): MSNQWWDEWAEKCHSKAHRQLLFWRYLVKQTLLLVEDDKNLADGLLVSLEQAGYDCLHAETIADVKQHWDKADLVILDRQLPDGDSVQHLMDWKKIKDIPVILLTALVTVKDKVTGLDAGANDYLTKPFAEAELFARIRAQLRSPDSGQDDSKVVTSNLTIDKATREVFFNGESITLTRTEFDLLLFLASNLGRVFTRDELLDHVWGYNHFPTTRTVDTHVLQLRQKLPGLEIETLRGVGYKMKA
Put plainly: EMSA. As to conditions: residues 1-245.
With “AAACCCTTTTTTAGTTCTTTTAGTTTCTTTACAATTTTCTGATAATCGAG (double strand) [VC2635 (pbp1a) FP1P50]”, the binding result was “binds”.
Take “AAAGATCATTTGTCGCTGAGAACTTGACCTCATCCCTACAAACGTCGAAC (double strand) [VC1272 FP1P50]”: the binding result was “binds”.
In the case of “AACGCGTCATCTTTTCAACTTCTCACATTAAGTTGTTCTAAATTCAACGA (double strand) [VC0969 M50]”, the binding result is listed as “binds”.
Turning to “ACTGAGTTTGGGTCAACCCTAGGTCAATTCTGGTTAGGCGGCGCACAAAC (double strand) [VC0370 M50]”, the binding result was “binds”.
Take “AGAGCCTTTCGGTTATTATTTTGTCACGTCTTTGCTAAAAATGAGAAAAG (double strand) [VC2213 M50]”: the binding result is on record as “binds”.
Consider “ATTCTATCAGCATTTTTTTACCAATGCTAATACTTATCTGATCTCACTAT (double strand) [VC0680 (murJ) MP50]”, for which the binding result is recorded as “binds”.
For “CAATATCATGCAAATGCATGGTTCTGACCAAAACTTTACGTAACTATTAC (double strand) [VC1655 (mgtE) M50]”, the binding result is on record as “binds”.
With “GCTATTCGGTTAAAAAAACCGCGCAATTTGACCCAAGCTTAACTTAACGA (double strand) [VC2686 (zapB) FP1P50]”, the binding result was “binds”.
For the sequence “TAAAACCGCCCTATTACTCACTGTTGTTGGTGCCGTTCTGCTCACTGGCT (double strand) [VCA0594 FP1P50]”, the binding result was “binds”.
For “TTAACCAAGTTAGAGTATTGACGTCAGATTTTTACCAAAAAACTTATTTC (double strand) [VC2037 M50]”, the binding result is listed as “binds”.
